According to US20040063668A1, “Novel acyclic nucleoside phosphonate derivatives, salts thereof and process for the preparation of the same” (priority 2001, published 2004):

Tested on: HBV
Assay: Pharmacological test on HBV transgenic mouse (serum HBV DNA by PCR)
Type: in vivo, HBV transgenic mice (FVB strain)
Conditions: oral, effect = blood does not contain HBV DNA

In the case of PMEA dipivoxil, the “Result: number of mice showing pharmacological effect/number of total mice” value (0.4 mg/kg/day for 9 days) is reported as 1/6 and the “Result: number of mice showing pharmacological effect/number of total mice” value (2 mg/kg/day for 9 days) is reported as 1/3.
